Test results taken from patent USRE46698E1, “Use of cyclohexanol derivatives as antimicrobial active compounds” (MERCK PATENT GMBH, priority 2011, dated 2018).

Test: Deodorant action, inherent odour (Example 2)

## CCOC(=O)C1CCCCC1O (stereo not shown) [Substance I-2]
  Inherent odour: of apple
